Among the data in patent US20150283227A1, “SYNTHETIC ENV PROTEINS” (priority 2012, published 2015) are kd values, retold here.

Marks after values point to notes of the source that are not given here.

In assay [1] the target is PG9 UCA. Description: SPR binding to unmutated ancestor of PG9. Details: species or system human. The note with it: Table 1, faster component of dissociation phase. The procedure: (§1) Only the V1/V2 mAb CH58 bound to the glycan-deficient (aglycone) peptide (FIG. 9A). V1/V2 bNAbs ([…], CH01) bound weakly to V1/V2 GlcNAc2 peptide (FIG. 9B). In contrast, both bNAbs PG9 and CH01 bound avidly to the glycopeptides, V1/V2 Man3GlcNAc2 and V1/V2 Man5GlcNAc2 (FIGS. 9C and 9D). CH58 bound weakly to both glycopeptides. Each of the mAbs was captured on a human Fc specific IgG directly immobilized on a BIAcore CM5 sensor chip. Each of the V1/V2 peptides (3 min at 50 uL/min) was injected over the mAb captured surface and SPR binding was monitored on a BIAcore 3000 instrument. Non-specific binding of peptides was subtracted following measurement of signal on a surface with a control ant-RSV mab Synagis.
(§2) The binding Kd (disassociation constant) of the UAs ranges from about 0.15 to 0.2 μM.
(§3) V1V2 glycopeptide binding Kd and rate constant measurements were carried out on BIAcore 3000 instruments as described earlier (Alam et al, Immunol. 178(7):4424-4435 (2007), Alam et al, J. Virol. 82(1):115-125 (2008)). […]
A general note: Surface plasmon resonance follows binding to a sensor surface in real time, without labels.

In assay [2] the target is CH01 UCA. Put plainly: SPR binding to unmutated ancestor of CH01. The note with it: Table 1, faster component of dissociation phase. Details: species or system human. The procedure: as §1, §2, §3

On to Man3GlcNAc2 V1V2, for which the kd is listed as 56.6 s^−1 (×10^4) in assay [1] and 36.3 s^−1 (×10^4) in assay [2].
